A mixed list of measured activities; the numbers were collected in NIAID ChemDB.

All rows: growth or infection tests; species: Human cytomegalovirus; measure: EC50

Conditions beyond the fields shown may differ between rows. ECn is the concentration giving n% inhibition of infection, replication or growth. Blank or dashed fields: not listed here.

compound,strain,method,value
COc1cccc(N2CCN(C3=Nc4c(F)cccc4[C@H](CC(=O)O)N3c3cc(C(F)(F)F)ccc3OC)CC2)c1,Clinical isolate 10,plaque count,0.013 µM
O=c1ccn(CC=C(CO)CO)c(=O)[nH]1,,,>100 µg/mL
COC[C@@H]1CCCN1c1nc(C)c([N+](=O)[O-])c(-n2ccnc2C)n1,,,0.15 µM
Nc1ccn(C[C@@H](CO)OCP(=O)(O)O)c(=O)n1,1117 3-1-2 (CDV-resistant),plaque count,2.27 µM
CC1(C)OC2C(O1)[C@H](c1c(Cl)c(Cl)cc3nc(Cl)cn13)O[C@@H]2CO[Si](C)(C)C(C)(C)C,,plaque count,>100 µM
[N-]=[N+]=N[C@@H]1C[C@@H](CO)S[C@H]1n1ccc(=O)[nH]c1=O,,,<100 µg/mL
CCN(CC)CC(=O)Nc1ccc(NC(=S)Nc2ccc(NC(C)=O)cc2)cc1Cl,,plaque count,>10 µg/mL
CN(C)c1ccc(Oc2ccc(O)cc2)cc1,AD169,plaque count,13.6 µM
Nc1nc2c(ncn2COC(CO)CO)c(=O)[nH]1,AD169,plaque count,1.5 µM
OC[C@H]1O[C@@H](n2c(Cl)nc3cc(Cl)c(Cl)cc32)[C@H](O)[C@@H]1O,D10 (D341E),plaque count,18 µM
O=c1[nH]c(=O)n([C@H]2CO[C@@H](CO)O2)cc1/C=C/Br,WFI,,>100 µg/mL
Cc1cc(C)cc(Cn2c(=O)ccn([C@H]3CCCO3)c2=O)c1,AD169,,330 µM
C/C(=C\Cn1ccc(N)nc1=O)CO,,,>100 µg/mL
Nc1nc2c(ncn2[C@@H]2C=C[C@H](CO)[C@@H](O)C2)c(=O)[nH]1,AD169,,0.6 µg/mL
C=C1[C@H](CO)[C@H]1Cn1cnc2c(Cl)ncnc21,,,>100 µM
O=c1[nH]c(=O)n([C@H]2CO[C@@H](CO)S2)cc1/C=C/Br,WFI,,>100 µg/mL
Nc1nc2c(ncn2COC(CO)CO)c(=O)[nH]1,TOWNE,hybridisation,3.7 µM
OC[C@H]1O[C@@H](c2c(Cl)c(Cl)cc3nc(Cl)cn23)[C@H](O)[C@@H]1O,,plaque count,>100 µM
O=c1[nH]c(=O)n([C@H]2CO[C@H](CO)O2)cc1/C=C/Br,WFI,,>30 µg/mL
COc1cc(OC)c(NC(=S)Nc2ccc(NC(C)=O)cc2)cc1Cl,,plaque count,>50 µg/mL
Nc1nc2c(ncn2C[C@H]2CO[C@H](CP(=O)(O)O)O2)c(=O)[nH]1,,,1.5 µg/mL
OCC(CO)OCn1c(Br)nc2c(Cl)cc(Cl)cc21,,virus yield,<50 µM
OC[C@H]1O[C@H](c2c(Cl)ccc3nc(Cl)cn23)[C@H](O)[C@@H]1O,,plaque count,>100 µM
Cc1nc(N(C)Cc2ccccc2)nc(-n2ccnc2C)c1[N+](=O)[O-],,,0.06 µM
CCCC(C)Nc1ccc(Oc2ccc(O)cc2)cc1,,virus yield,4.1 µM
[N-]=[N+]=N[C@H]1C[C@H](CO)S[C@H]1n1ccc(=O)[nH]c1=O,,,<100 µg/mL
CCCN(C)c1ccc(Oc2ccc(O)cc2)cc1,AD169,plaque count,3.6 µM
[N-]=[N+]=N[C@H]1C[C@H](CO)S[C@H]1n1ccc(N)nc1=O,,,<100 µg/mL
Nc1ncc2c(ncn2COC(CO)CO)n1,DAVIS,cytopathic effect,0.02 µg/mL
Cc1nc(N2CCCC2C)nc(-n2ccnc2)c1[N+](=O)[O-],,,0.35 µM
CN(C)c1cccc2c(S(=O)(=O)Nc3ccc(NC(=O)C(C)(C)CO)cc3)cccc12,TOWNE,plaque count,1.03 µM
OC[C@H]1O[C@@H](n2c(Cl)nc3cc(Cl)c(Cl)cc32)[C@H](O)[C@@H]1O,,plaque count,0.7 µM
Nc1nc2c(ncn2C=C2CC2CO)c(=O)[nH]1,VR6200 (ganciclovir-susceptible),plaque count,2 µM
OC[C@H]1O[C@@H](c2cccc3nccn23)[C@H](O)[C@@H]1O,,plaque count,>100 µM
Nc1ncc2ncn(/C=C3\CC3CO)c2n1,,ELISA,>100 µM
Cc1cn(CC=C(CO)CO)c(=O)[nH]c1=O,,,>100 µg/mL
O=c1[nH]c(=O)n([C@@H]2CO[C@@H](CO)O2)cc1/C=C/Br,WFI,,25 µg/mL
CN(c1ccc(Oc2ccc(O)cc2)cc1)C1CC1,AD169,plaque count,5.7 µM
C=C1[C@H](CO)[C@H]1Cn1cnc2c(N)nc(N)nc21,,,>100 µM
CCOP(=O)(O)COCOn1cnc2c(=O)[nH]c(N)nc21,AD169,,0.24 µg/mL
Nc1nc2c(ncn2COC(CO)CO)c(=O)[nH]1,25 isolates,plaque count,3.51 µM
Cc1cc(C)cc(Cn2c(=O)ccn(Cc3ccccc3)c2=O)c1,AD169,,1 µM
CCc1nccn1-c1nc(N(C)COC)nc(C)c1[N+](=O)[O-],,,0.8 µM
CC(C)N(C)c1ccc(Oc2ccc(O)cc2)cc1,AD169,plaque count,11.6 µM
Nc1ncc2ncn(/C=C3/CC3CO)c2n1,,ELISA,>100 µM
OCC(CO)OCn1c(Br)nc2cc(Cl)c(Cl)cc21,,virus yield,<25 µM
OC[C@H]1O[C@@H](n2c(Cl)nc3cc4cc(Cl)c(Cl)cc4cc32)[C@H](O)[C@@H]1O,,plaque count,16 µM
CCCCCCCc1cc2cnc(OC3CCCC3)nc2o1,AD169,,3 µM
Nc1nc2c(ncn2COC(CO)CO)c(=O)[nH]1,1117 3-1-2 (CDV-resistant),plaque count,48.3 µM
Cc1cn([C@H]2S[C@@H](CO)C[C@@H]2N=[N+]=[N-])c(=O)[nH]c1=O,,,<100 µg/mL
CC(=O)Nc1ccc(NC(=S)NC(C)c2ccc(F)cc2)cc1,,plaque count,>0.5 µg/mL
C=C1[C@H](CO)[C@H]1Cn1cnc2c(=O)[nH]cnc21,,,>100 µM
OC[C@H]1O[C@@H](n2c(Br)nc3cc(Cl)c(Cl)cc32)[C@H](O)[C@@H]1O,17517 (GCV-susceptible),plaque count,0.46 µM
C=CC(CO)(CO)CCn1cnc2c(N)ncnc21,,,62.16 µg/mL
Cc1cc(C)cc(Cn2c(SCc3ccccc3)nccc2=S)c1,AD169,,4.5 µM
O=C(NCc1ccc(Cl)cc1)c1c[nH]c2ccc(C#CCO)cc2c1=O,9 isolates,plaque count,1.3 µM
O=C(NCc1ccc(Cl)cc1)c1c[nH]c2c(F)cc(CCCO)cc2c1=O,GDGrP53,plaque count,0.3 µM
Cc1cc(C)cc(Cn2c(=S)ccn(CC(c3ccccc3)c3ccccc3)c2=O)c1,AD169,,>120 µM
C/C(=C\Cn1ccc(=O)[nH]c1=O)CO,,,>100 µg/mL
COc1ccc(Oc2ccc(NC3CCCCCC3)cc2)cc1,AD169,plaque count,30.5 µM
CC1(C)OC2C(O1)[C@H](c1c(Cl)ccc3nc(Cl)cn13)O[C@@H]2CO,,plaque count,>100 µM
C[C@@H]1O[C@@H](n2c(Cl)nc3cc(Cl)c(Cl)cc32)[C@H](O)[C@@H]1O,48041 (GCV-susceptible),plaque count,0.82 µM
Oc1ccc(Oc2ccc(NC3CCCCCC3)cc2)cc1,AD169,plaque count,4.1 µM
Nc1n[nH]c(=O)c2c1ccn2[C@@H]1O[C@H](CO)[C@@H](O)[C@@H]1O,TOWNE,plaque count,>100 µM

The last 9 rows once more:

compound | strain | method | value
O=C(NCc1ccc(Cl)cc1)c1c[nH]c2ccc(C#CCO)cc2c1=O | 9 isolates | plaque count | 1.3 µM
O=C(NCc1ccc(Cl)cc1)c1c[nH]c2c(F)cc(CCCO)cc2c1=O | GDGrP53 | plaque count | 0.3 µM
Cc1cc(C)cc(Cn2c(=S)ccn(CC(c3ccccc3)c3ccccc3)c2=O)c1 | AD169 |  | >120 µM
C/C(=C\Cn1ccc(=O)[nH]c1=O)CO |  |  | >100 µg/mL
COc1ccc(Oc2ccc(NC3CCCCCC3)cc2)cc1 | AD169 | plaque count | 30.5 µM
CC1(C)OC2C(O1)[C@H](c1c(Cl)ccc3nc(Cl)cn13)O[C@@H]2CO |  | plaque count | >100 µM
C[C@@H]1O[C@@H](n2c(Cl)nc3cc(Cl)c(Cl)cc32)[C@H](O)[C@@H]1O | 48041 (GCV-susceptible) | plaque count | 0.82 µM
Oc1ccc(Oc2ccc(NC3CCCCCC3)cc2)cc1 | AD169 | plaque count | 4.1 µM
Nc1n[nH]c(=O)c2c1ccn2[C@@H]1O[C@H](CO)[C@@H](O)[C@@H]1O | TOWNE | plaque count | >100 µM